Anti-infective test results gathered from many reports (values: NIAID ChemDB through PubChem).

Shared fields: toxicity to cultured cells; read-out: CC50

CCn is the concentration with n% toxicity to the cells. Two numbers with a dash give a range or band. Neighbouring rows are from separate reports. An empty or dashed field is not shown.

O=C(NCc1ccccc1)c1ccc(-c2ccc3c(c2)OCO3)cc1 ; cell line: RAJI ; result: >20 µM
O=C1NC(=Nc2ccc(F)c(Cl)c2)S/C1=C\c1ccc(-c2ccc(C(=O)O)c(O)c2)o1 ; cell line: BAE ; method: MTT ; result: 25 µM
C=C1CN(S(=O)(=O)c2ccc(C)cc2)CCCN(CC2CC=CCC2)CCCN(S(=O)(=O)c2ccc(C)cc2)C1 ; cell line: SupT1 ; method: trypan blue / propidium iodide ; result: 40.4 µM
O=c1c(-c2ccccc2)c(O)c2cc(F)cnc2n1O ; cell line: HeLa ; result: 0.14 µM
COc1c2c(c(OC)c3occc13)OC=C(C=O)C2O ; cell line: HCV replicon cells ; result: 234 µM
Nc1nc2c(ncn2COC(CO)CO)c(=O)[nH]1 ; cell line: NIH 3T3 ; method: cell count ; result: 137 µM
O=c1c(-c2ccccc2)c(O)c2cc(/C=C/c3ccccc3)cnc2n1O ; cell line: HeLa ; result: <100 µM
CC(C)Nc1nc2cc(Cl)c(Cl)cc2n1[C@H]1O[C@@H](CO)[C@H](O)[C@@H]1O ; cell line: BFU-E ; result: 88 µM
CC(C)N(Cc1cccc(OCCCCCC(=O)OC(=O)O)c1)C(=O)c1ccc(-c2ccco2)cc1 ; cell line: HepG2 ; result: >20 µM
CCc1cn([C@H]2C[C@H](O)[C@@H](CO)O2)c(=O)[nH]c1=O ; cell line: RF ; method: cell count ; result: 602 µM
c1ccc2c(c1)oc1cc(OCCCCCCn3ccnc3)ccc12 ; cell line: WIS HELA ; method: crystal violet ; result: 5 µg/mL
Nc1nc2c(ncn2CCC(CO)CO)c(=O)[nH]1 ; cell line: RF ; method: cell count ; result: 170 µM
Cc1cc(CCCCCCCOc2cccc3ccccc23)on1 ; cell line: WIS HELA ; method: crystal violet ; result: >50 µg/mL
N#Cc1cccc(COc2cc(=O)c3c(O)c(OCc4cccc(Cl)c4)ccc3o2)c1 ; cell line: Hs27 ; method: MTT ; result: >50 µM
c1ccc(-n2nccc2CCCCCCOc2ccc3ccccc3c2)cc1 ; cell line: WIS HELA ; method: crystal violet ; result: 50 µg/mL
COc1ccc(CCNC(=O)CCCCC(C)=O)cc1OC ; cell line: HEK 293 ; result: <7.5 µM
O=c1[nH]c(=O)n([C@H]2C[C@H](O)[C@@H](CO)O2)cc1/C=C/Br ; cell line: NIH 3T3 ; method: cell count ; result: 18 µM
CCC(C)[C@@H]1NC(=O)[C@@H](C(C)C)NC(=O)[C@H](CC(C)C)NC(=O)[C@H](Cc2c[nH]c3ccccc23)NC(=O)CNC(=O)[C@H](CC(N)=O)NC1=O ; cell line: Colorectal carcinoma cells ; method: MTT ; result: >30 µM
O=C1/C(=C/c2ccc(-c3cc(C(F)(F)F)ccc3Cl)o2)SC(=S)N1Cc1ccc(F)cc1 ; cell line: HEK 293 ; method: MTT ; result: 2.4 µM
O=c1cc(OCc2ccccc2)oc2ccc(OCc3cccc(Cl)c3)c(O)c12 ; cell line: Hs27 ; method: MTT ; result: >50 µM
C=C1CN(S(=O)(=O)c2ccccc2)CCCN(Cc2ccccc2)CCCN(S(=O)(=O)c2ccccc2)C1 ; cell line: SupT1 ; method: trypan blue / propidium iodide ; result: >75 µM
O=c1cc(NCc2cccc(CN3CCCCC3)c2)c2cccnc2n1O ; cell line: HeLa ; result: <100 µM
c1ccc(-n2nccc2CCCCCCOc2ccc3c(c2)oc2ccccc23)cc1 ; cell line: WIS HELA ; method: crystal violet ; result: 50 µg/mL
CC(C)c1ccc2c(c1)c(=O)cc(-c1cccs1)n2C ; cell line: HELA-OHIO ; method: MTT ; result: 11 µg/mL
CNC(=O)c1ccc2c(=O)n(O)c3ncccc3c2c1 ; cell line: HeLa ; result: <100 µM
CC[C@@H]1CN2CC[C@]34c5ccccc5-n5c3c(cc(C(=O)OC)c5=O)[C@H]1C[C@H]24 ; cell line: HL-60 ; method: MTT ; result: 16.82 µM
CC(C)C[C@@H]1NC(=O)[C@H](Cc2c[nH]c3ccccc23)NC(=O)[C@@H](CCCCN)NC(=O)[C@H](CC(C)C)NC(=O)[C@H](C(C)C)NC(=O)[C@@H](CC(C)C)NC1=O ; cell line: Lung carcinoma cells ; method: MTT ; result: >30 µM
Nc1nc2c(ncn2COCCO)c(=O)[nH]1 ; cell line: P3HR-1 ; result: 250 µM
Nc1nc2c(ncn2COC(CO)CO)c(=O)[nH]1 ; cell line: IM9 ; result: 35–72 µM
CC(C)C[C@@H]1NC(=O)[C@H](Cc2c[nH]c3ccccc23)NC(=O)[C@@H](C(C)(C)C)NC(=O)[C@H](CCCCN)NC(=O)[C@H](C(C)C)NC(=O)[C@@H](CC(C)C)NC1=O ; cell line: Colorectal carcinoma ; method: MTT ; result: >30 µM
Cc1cn([C@@H]2O[C@H](CO)[C@@H](O)[C@@H]2F)c(=O)[nH]c1=O ; cell line: P3HR-1 ; result: 1 µM
O=c1ccn([C@@]23CO[C@@H]2[C@H](O)[C@@H](CO)O3)c(=O)[nH]1 ; cell line: Zluc ; method: resazurin ; result: >100 µM
C=C1CN(S(=O)(=O)c2ccc(COCCCC)cc2)CCCN(Cc2ccccc2)CCCN(S(=O)(=O)c2ccc(COCCCC)cc2)C1 ; cell line: SupT1 ; method: trypan blue / propidium iodide ; result: >75 µM
Cc1cc(C)n(CCCCCCON2C(=O)COc3c2ccc2ccccc32)n1 ; cell line: WIS HELA ; method: crystal violet ; result: 100 µg/mL
O=c1cc(OCc2cc(Cl)cc(Cl)c2)oc2ccc(OCc3cccc(Cl)c3)c(O)c12 ; cell line: Hs27 ; method: MTT ; result: >50 µM
COc1cc2c(cc1OC)C1(CC=CCC1)N(C(C)=O)CC2 ; cell line: HepG2 ; result: <7.5 µM
COC(=O)C1=C2Nc3ccccc3[C@@]23CCN2C[C@]4(C[C@@H]5C[C@]67CCO[C@H]6CCC6NC[C@@]8(c9cccc(OC)c9N(C4)[C@@H]58)[C@@H]67)[C@@H]4OCCC4(C1)[C@H]23 ; cell line: J-Lat Tat-GFP 82 ; method: absorbance ; result: >10 µM
CC1(C)C[C@@H](O)C[C@](C)(CNC(=S)c2ccccc2)C1 ; cell line: MDCK ; result: 10 µg/mL
C/C1=C\[C@H](O)C[C@@](C)(O)/C=C/[C@H](C(C)C)CC/C(C)=C/CCC1 ; cell line: Astrocytes ; method: MTT ; result: >100 µM
CCOC(=O)c1c(O)c2cc(Br)cnc2n(O)c1=O ; cell line: HeLa ; result: <100 µM
CC1(C)C[C@H](O)C[C@](C)(CNC(=S)c2cccc(Cl)c2)C1 ; cell line: MDCK ; result: 8.5 µg/mL
Cc1c(-c2cccs2)n(C)c2ccc(OCC(C)C)c(C)c2c1=O ; cell line: HELA-OHIO ; method: MTT ; result: >2.5 µg/mL
CCCNc1ccccc1OCCCCC(=O)OCC ; cell line: HepG2 ; result: >20 µM
Cc1c(-c2ccccc2)n(-c2ccc(F)cc2)c2ccc(C(C)C)cc2c1=O ; cell line: HeLa S3 ; method: MTT ; result: >2 µg/mL
CC(C)C[C@@H]1NC(=O)[C@H](Cc2c[nH]c3ccccc23)NC(=O)[C@@H](CCCCN)NC(=O)[C@H](CC(=O)O)NC(=O)[C@H](C(C)C)NC(=O)[C@@H](CC(C)C)NC1=O ; cell line: Colorectal carcinoma ; method: MTT ; result: >30 µM
C=C1[C@H]2C[C@@H]3N(CC[C@@]34c3cccc5c3N(C[C@H]3[C@H]6C[C@@H]7N(CC[C@@]78c7ccccc7N[C@@]538)C[C@H]6CC)[C@@H]14)C[C@H]2CC ; cell line: HL-60 ; method: MTT ; result: 3.8 µM
O=C1NC(=NCCc2ccc(Cl)c(Cl)c2)S/C1=C\c1ccc(-c2ccc(C(=O)O)c(O)c2)o1 ; cell line: Ramos ; method: MTT ; result: >100 µM
O=c1[nH]c(=O)n([C@@H]2O[C@H](CO)[C@@H](O)[C@@H]2F)cc1I ; cell line: P3HR-1 ; result: 1 µM
CCOC(=O)CCCCCOc1cccc(CN(C(=O)c2ccc(-c3cn(S(=O)(=O)c4ccccc4)c4ccccc34)cc2)C(C)C)c1 ; cell line: BJ ; result: >20 µM
CC(C)C[C@@H]1NC(=O)[C@H](Cc2c[nH]c3ccccc23)NC(=O)CNC(=O)[C@H](CO)NC(=O)[C@H](C(C)C)NC(=O)[C@@H](CC(C)C)NC1=O ; cell line: Colorectal carcinoma ; method: MTT ; result: >30 µM
CCn1c(-c2ccccc2)c(C)c(=O)c2cc(OCC(C)C)c(C)cc21 ; cell line: HELA-OHIO ; method: MTT ; result: >4 µg/mL
Cc1cc(C)cc(C(=S)NC[C@@]2(C)C[C@@H](O)CC(C)(C)C2)c1 ; cell line: MDCK ; result: 40 µg/mL
COc1ccc(CCNC(=O)CCO[Si](C)(C)C(C)(C)C)cc1OC ; cell line: BJ ; result: <13.5 µM
CCn1c2c(c(=O)c3cc(C(C)C)ccc31)Cc1ccccc1-2 ; cell line: HELA-OHIO ; method: MTT ; result: >10 µg/mL

Repeating the final 3 entries:

smiles | cell line | method | result
Cc1cc(C)cc(C(=S)NC[C@@]2(C)C[C@@H](O)CC(C)(C)C2)c1 | MDCK |  | 40 µg/mL
COc1ccc(CCNC(=O)CCO[Si](C)(C)C(C)(C)C)cc1OC | BJ |  | <13.5 µM
CCn1c2c(c(=O)c3cc(C(C)C)ccc31)Cc1ccccc1-2 | HELA-OHIO | MTT | >10 µg/mL